Pooled drug test results. Numbers come from NIAID ChemDB, via PubChem.

Common to all: tests in culture; species: Vaccinia virus; cell line: PRK; read-out: EC50

ECn is the concentration giving n% inhibition of infection, replication or growth.

structure,result
Nc1ncnc2c1ncn2[C@@H]1C=C(CO)[C@@H](O)[C@@H]1O,20 µg/mL
N=C(N)CCNC(=O)c1c[nH]c(NC(=O)c2c[nH]c(NC(=O)CC(=O)Nc3c[nH]c(C(=O)Nc4c[nH]c(C(=O)NCCC(=N)N)c4)c3)c2)c1,0.2 µg/mL
O=c1[nH]c(=O)n(C2CC(O)C(CO)O2)cc1CCCCl,27 µg/mL
O=c1[nH]c(=O)n([C@H]2C[C@H](O)[C@@H](CO)O2)cc1I,0.1 µg/mL
Nc1ncnc2c1ncn2[C@H]1C[C@@H](CO)[C@H](O)[C@@H]1O,400 µg/mL
CC(=O)OCCOCn1cnc2c(Cl)nc(N)nc21,70 µg/mL
Nc1ncnc2c1ncn2C[C@H](O)CO,20 µg/mL
N=C(N)CCNC(=O)c1c[nH]c(NC(=O)c2c[nH]c(NC(=O)c3ccc(CC(=O)Nc4c[nH]c(C(=O)Nc5c[nH]c(C(=O)NCCC(=N)N)c5)c4)cc3)c2)c1,10 µg/mL
Nc1nccc2c1ncn2[C@@H]1C[C@H](CO)[C@@H](O)[C@H]1O,0.7 µg/mL
O=c1[nH]c(=O)n(COCCO)cc1Cl,>400 µg/mL
CON1CCc2c([nH]c3ccccc23)[C@@H]1[C@@H](N)CSC,>100 µg/mL
Nc1nc2c(ncn2[C@H]2C[C@H](O)[C@@H](CO)O2)c(=O)[nH]1,40–100 µg/mL
Nc1ncnc2c1ncn2CC(O)CO,40–70 µg/mL
Nc1ncnc2c1ncn2[C@@H]1C=C(CO)[C@@H](O)C1,4 µg/mL
CSCc1cn([C@H]2C[C@H](O)[C@@H](CO)O2)c(=O)[nH]c1=O,7 µg/mL
Cc1nc(Cc2ccccc2)c2[nH]c(=S)[nH]c(=O)n12,150 µg/mL
Nc1nc(=O)n(C2CC(O)C(CO)O2)cc1CCCl,400 µg/mL
CO[C@H]1[C@H](O)[C@H](n2ccc(N)nc2=O)O[C@@H]1CO,>200 µg/mL
Nc1nc2c(ncn2COCCOP(=O)(O)O[C@@H]2[C@H](O)[C@@H](COP(=O)(O)O[C@@H]3[C@H](O)[C@@H](CO)O[C@H]3n3cnc4c(N)ncnc43)O[C@H]2n2cnc3c(N)ncnc32)c(=O)[nH]1,>100 µg/mL
O=c1[nH]c(=O)n([C@H]2C[C@H](O)[C@@H](CO)O2)cc1/C=C\Cl,7 µg/mL
O=c1[nH]c(=O)n([C@@H]2OC3COP(=O)(O)OC3[C@H]2O)cc1I,>400 µg/mL
Cc1cn(COCCO)c(=O)[nH]c1=O,>400 µg/mL
[N-]=[N+]=N[C@@H]1[C@H](O)[C@@H](CO)O[C@H]1n1ccc(N)nc1=O,40–100 µg/mL
O=c1ccn(COCCO)c(=O)[nH]1,>400 µg/mL
CCc1cn([C@H]2C[C@H](O)[C@@H](COP(=O)(O)O)O2)c(=O)[nH]c1=O,174 µg/mL
CC(=O)OC[C@H]1O[C@@H](n2cc(SC#N)c(=O)[nH]c2=O)[C@H](OC(C)=O)[C@@H]1OC(C)=O,100 µg/mL
O=c1[nH]c(=O)n([C@H]2C[C@H](O)[C@@H](CO)O2)cc1I,0.2 µg/mL
O=c1[nH]c(=O)n([C@H]2C[C@@H](CO)[C@H](O)C2)cc1I,≥400 µg/mL
Nc1ncnc2c1ncn2[C@@H]1O[C@H](CO)[C@@H](O)[C@@H]1O,0.4 µg/mL
C=CC1=C[C@@H](n2cnc3c(N)ncnc32)[C@H](O)[C@@H]1O,20 µg/mL
O=c1[nH]c(=O)n([C@@H]2O[C@H](CO)[C@@H](O)[C@@H]2O)cc1/C=C/Br,>200 µg/mL
N[C@@H]1[C@H](O)[C@@H](CO)O[C@H]1n1ccc(=O)[nH]c1=O,150 µg/mL
N=C(N)CCNC(=O)c1c[nH]c(NC(=O)c2c[nH]c(NC(=O)c3c[nH]c(NC(=O)CCC(=O)Nc4c[nH]c(C(=O)Nc5c[nH]c(C(=O)Nc6c[nH]c(C(=O)NCCC(=N)N)c6)c5)c4)c3)c2)c1,4 µg/mL
[N-]=[N+]=N[C@@H]1[C@H](O)[C@@H](CO)O[C@H]1n1cnc2c(=O)[nH]c(N)nc21,>200 µg/mL
COCC1=C[C@@H](n2cnc3c(N)ncnc32)[C@H](O)[C@@H]1O,20 µg/mL
[N-]=[N+]=N[C@H]1[C@H](O)[C@H](n2cnc3c(N)ncnc32)O[C@@H]1CO,20 µg/mL
CS(=O)Cc1cn([C@H]2C[C@H](O)[C@@H](CO)O2)c(=O)[nH]c1=O,>400 µg/mL
N#CSc1cn([C@@H]2O[C@H](CO)[C@@H](O)[C@@H]2O)c(=O)[nH]c1=O,40 µg/mL
C=CCc1nc(C)n2c(=O)[nH]c(NC(C)=O)nc12,>200 µg/mL
CN(C)c1nc2c(=O)[nH]c(N)nc2n1COCCO,≥300 µg/mL
CN(C)Cc1cn([C@H]2C[C@H](O)[C@@H](CO)O2)c(=O)[nH]c1=O,>200 µg/mL
Nc1ncnc2c1ncn2[C@H]1C[C@H](O)[C@@H](CO)O1,>200 µg/mL
CN1CCN(Cc2cn([C@H]3C[C@H](O)[C@@H](CO)O3)c(=O)[nH]c2=O)CC1,≥200 µg/mL
Nc1ncnc2c1ncn2[C@@H]1O[C@H](COP(=O)(O)O[C@@H]2[C@H](O)[C@@H](COP(=O)(O)O[C@@H]3[C@H](O)[C@@H](COP(=O)(O)OP(=O)(O)OP(=O)(O)O)O[C@H]3n3cnc4c(N)ncnc43)O[C@H]2n2cnc3c(N)ncnc32)[C@@H](O)[C@H]1O,150 µg/mL
Nc1nc2c(ncn2COCCO)c(=O)[nH]1,70 µg/mL
Nc1ncnc2c1ncn2[C@@H]1O[C@H](COP(=O)([O-])OP(=O)([O-])OC[C@@H]2OC(O)[C@H](O)[C@H](O)[C@H]2O)[C@@H](O)[C@H]1O,15 µg/mL
CC(=O)Nc1nc2c(CC(O)CO)nc(C)n2c(=O)[nH]1,>400 µg/mL
O=c1[nH]c(=O)n([C@H]2C[C@H](O)[C@@H](CO)O2)cc1/C=C/Br,20 µg/mL
Nc1ncnc2c1ncn2C[C@H](O)CO,10–20 µg/mL
CCc1cn([C@H]2C[C@H](O)[C@@H](CO)O2)c(=O)[nH]c1=O,1 µg/mL
O=c1[nH]c(=O)n([C@H]2C[C@H](O)[C@@H](CO)O2)cc1/C=C/Br,7 µg/mL
CCOC[C@H]1O[C@@H](n2ccc(N)nc2=O)[C@@H](O)[C@@H]1O,>200 µg/mL
[N-]=[N+]=N[C@H]1[C@@H](F)[C@H](n2cnc3c(N)ncnc32)O[C@@H]1CO,300 µg/mL
O=c1[nH]c(=O)n([C@H]2C[C@H](O)[C@@H](COP(=O)(O)O)O2)cc1/C=C/c1ccccc1,20 µg/mL
NC1CCCON2CCc3c([nH]c4ccccc34)[C@H]12,2 µg/mL
CO[C@H]1[C@H](OC)[C@@H](CO)O[C@H]1n1cnc2c(N)ncnc21,>100 µg/mL
Nc1nc2c(ncn2COCCO)c(=O)[nH]1,70 µg/mL
COc1nc(=O)n([C@H]2C[C@H](O)[C@@H](CO)O2)cc1/C=C/Cl,150 µg/mL
Nc1ccn([C@@H]2C[C@H](CO)[C@@H](O)[C@H]2O)c(=O)n1,15 µg/mL
O=c1[nH]c(=O)n([C@H]2C[C@H](O)[C@@H](CO)O2)cc1Cc1ccccc1,300 µM

Again, the opening 4 rows:

structure	result
Nc1ncnc2c1ncn2[C@@H]1C=C(CO)[C@@H](O)[C@@H]1O	20 µg/mL
N=C(N)CCNC(=O)c1c[nH]c(NC(=O)c2c[nH]c(NC(=O)CC(=O)Nc3c[nH]c(C(=O)Nc4c[nH]c(C(=O)NCCC(=N)N)c4)c3)c2)c1	0.2 µg/mL
O=c1[nH]c(=O)n(C2CC(O)C(CO)O2)cc1CCCCl	27 µg/mL
O=c1[nH]c(=O)n([C@H]2C[C@H](O)[C@@H](CO)O2)cc1I	0.1 µg/mL

Two numbers with a dash give a range or band. Conditions beyond the fields shown may differ between rows.